Compound potency records, mixed from different reports. Data source: NIAID ChemDB in PubChem.

Common to all: toxicity to cultured cells; cell line: HEL; read-out: CC50

Neighbouring rows are from separate reports. CCn is the concentration with n% toxicity to the cells.

structure	value
Cc1c(Br)cc(Br)c2ncc(CSCc3ccc(Cl)cc3)n12	>50 µg/mL
C/C(=C\CC/C(C)=C/Cc1cc(O)cc(C)c1O)CC/C=C(\C)CC[C@@H](C)C(C)(C)O	7.7 µM
Cc1cn([C@@H]2O[C@H](CO)[C@@H](O)[C@@H]2F)c(=O)[nH]c1=O	1 µg/mL
Nc1nc2c(ncn2CCC(CO)CO)c(=O)[nH]1	>926 µM
CC1(C)[C@@H](CO)CC[C@@]1(C)Cn1cnc2c(=O)[nH]cnc21	>50 µg/mL
CCCCCCCCCCc1cc2cn([C@H]3C[C@H](O)[C@@H](CO)O3)c(=O)nc2n1C	179 µM
C#CCCCCc1cc2cn([C@H]3C[C@H](O)[C@@H](CO)O3)c(=O)nc2o1	>200 µM
Nc1nc2c(ncn2COC(CO)CO)c(=O)[nH]1	100 µg/mL
Nc1nc2c(ncn2C[C@@H](CO)OCP(=O)(O)O)c(=O)[nH]1	14 µM
O=c1[nH]c(=O)n([C@H]2C[C@H](O)[C@@H](CO)O2)cc1/C=C/Cl	>692 µM
COc1ccc(OC)c(C=NNC(=O)COc2cccc3ccccc23)c1	56.9 µg/mL
Nc1nc2c(ncn2CCCCO)c(=O)[nH]1	400 µM
Cc1ccc(-c2cc3cn([C@H]4C[C@H](O)[C@@H](CO)O4)c(=O)nc3o2)cc1	>200 µM
CCCCCC#Cc1cc2cn(COCCO)c(=O)nc2o1	>50 µM
CCCCCCCCCCc1cc2cn([C@H]3C[C@H](O)[C@@H](CO)O3)c(=O)nc2o1	>50 µM
O=c1ccn([C@@H]2C[C@H](CO)C[C@H]2CO)c(=O)[nH]1	>200 µg/mL
Nc1ncnc2c1ncn2C[C@H](CF)OCP(=O)(O)O	>150 µM
CCCCCCCC#Cc1cc2cn(COCCO)c(=O)nc2o1	>50 µM
Cc1c(Br)cc(Br)c2ncc(CSCc3ccccc3F)n12	>50 µg/mL
O=c1[nH]c(=O)n(C2C[C@H](CO)[C@@H](CO)C2)cc1I	>200 µg/mL
CCCCCCCCCC[N+](C)(C)CCCNCc1c(O)cc2c(c1O)-c1cc(ccc1O)[C@H]1NC(=O)[C@@H]3NC(=O)C4NC(=O)[C@@H](Cc5ccc(c(Cl)c5)Oc5cc3cc(c5O)Oc3ccc(cc3Cl)[C@@H](O)[C@H](NC1=O)C(=O)N[C@@H]2C(=O)O)NC(=O)[C@H](N)c1ccc(O)c(c1)Oc1cc(O)cc4c1	≥200 µM
Cc1c(Br)cc(Br)c2ncc(CSCc3ccccc3)n12	>50 µg/mL
CCCCCCc1cc2cn([C@H]3C[C@H](O)[C@@H](CO)O3)c(=O)nc2s1	>200 µM
Nc1nc2c(ncn2COC2COP(=O)(O)OC2)c(=O)[nH]1	2 µg/mL
CC1=CC(CO)(CO)C[C@H]1n1cnc2c(N)ncnc21	>100 µg/mL
C=CCCCCCCc1cc2cn([C@H]3C[C@H](O)[C@@H](CO)O3)c(=O)nc2o1	>200 µM
CC1(C)[C@@H](CCO)C[C@H]1n1nnc2c(Cl)nc(N)nc21	>50 µg/mL
COC(=O)[C@H]1NC(=O)[C@H]2NC(=O)[C@H](NC(=O)[C@@H]3NC(=O)[C@H]4NC(=O)[C@H](NC(=O)[C@H](N)c5ccc(O)c(c5)Oc5cc4cc(O)c5C)[C@H](O)c4ccc(cc4)Oc4cc3cc(c4O)Oc3ccc(cc3)[C@H]2O[C@@H]2C[C@@H](N)[C@@H](O)[C@H](C)O2)c2ccc(O)c(c2)-c2c(O)cc(O)cc21	>50 µM
Nc1ncnc2c1ncn2C[C@@H](CO)OCP(=O)(O)O	75 µM
O=C(COc1cccc2ccccc12)NN=Cc1ccccc1Br	100 µg/mL
CC1=C[C@H](n2ccc(N)nc2=O)C[C@@]1(CO)c1ccccc1	>100 µg/mL
CCCCCCCCCCc1cc2cn([C@H]3C[C@H](O)[C@@H](CO)O3)c(=O)nc2n1CC	34 µM
Nc1ncnc2c1ncn2C[C@H](CO)OCP(=O)(O)O	>600 µM
Nc1nc2c(ncn2CC[C@@H](O)CO)c(=O)[nH]1	800 µM
CC1(C)[C@@H](CCO)C[C@H]1n1cnc2c(=O)[nH]c(N)nc21	>50 µg/mL
CCCCCCc1cc2cn([C@H]3C[C@H](O)[C@@H](CO)O3)c(=O)nc2o1	>200 µM
CCCCCCc1cc2cn(COCCO)c(=O)nc2o1	>200 µM
O=c1[nH]c(=O)n([C@H]2C[C@H](O)[C@@H](CO)O2)cc1I	0.2 µg/mL
CC1(C)[C@@H](CO)CC[C@@]1(C)Cn1nnc2c(N)ncnc21	>50 µg/mL
Nc1ccn(C[C@@H](CO)OCP(=O)(O)O)c(=O)n1	332 µM
Nc1ncnc2c1ncn2[C@@H]1O[C@H](CO)[C@@H](O)[C@@H]1O	6 µg/mL
CC1(C)[C@@H](CCO)C[C@H]1n1nnc2c(N)nc(N)nc21	30 µg/mL
Nc1nc2c(ncn2COCCO)c(=O)[nH]1	250 µg/mL
CCCCCCCCCCc1cc2cn(COCCO)c(=O)nc2[nH]1	32 µM
N[C@H]1C(=O)N[C@@H]2Cc3ccc(c(Cl)c3)Oc3cc4cc(c3O)Oc3ccc(cc3Cl)[C@@H](O)[C@@H]3NC(=O)[C@H](NC(=O)[C@@H]4NC(=O)[C@@H](NC2=O)c2cc(O)cc(c2)Oc2cc1ccc2O)c1ccc(O)c(c1)-c1c(cc(O)c(CN2CCN(N=Cc4ccc(Cl)cc4)CC2)c1O)[C@@H](C(=O)O)NC3=O	>50 µM
CCCCCCCCCCc1cc2cn([C@H]3C[C@H](O)[C@@H](CO)O3)c(=O)nc2o1	>50 µM
O=C(COc1cccc2ccccc12)NN=CCc1ccccc1	100 µg/mL
Nc1nc2c(ncn2COC(CO)CO)c(=O)[nH]1	394 µM
O=C(COc1cccc2ccccc12)NN=Cc1cccc(Br)c1	48.6 µg/mL
CCCCCCc1cc2cn([C@H]3C[C@H](O)[C@@H](CO)O3)c(=O)nc2o1	>200 µM
CCCCCCCCCCCCc1cc2cn([C@H]3C[C@H](O)[C@@H](CO)O3)c(=O)nc2s1	49 µM
CC1(C)[C@@H](CO)CC[C@@]1(C)Cn1cnc2c(N)ncnc21	>50 µg/mL
O=c1[nH]c(=O)n([C@H]2C[C@H](O)[C@@H](CO)O2)cc1C(F)(F)F	0.007 µg/mL
O=C(COc1cccc2ccccc12)NN=Cc1ccc(O)cc1	60.6 µg/mL
O=C(O)P(=O)(O)O	667 µM
CCCCCCCCCc1cc2cn([C@H]3C[C@H](O)[C@@H](CO)O3)c(=O)nc2s1	>20 µM
CCCCCCCCc1cc2cn([C@H]3C[C@H](O)[C@@H](CO)O3)c(=O)nc2o1	>50 µM
O=c1[nH]cnc2c1ncn2C1C[C@H](CO)[C@@H](CO)C1	>200 µg/mL

Repeating the first 5 entries:

structure	value
Cc1c(Br)cc(Br)c2ncc(CSCc3ccc(Cl)cc3)n12	>50 µg/mL
C/C(=C\CC/C(C)=C/Cc1cc(O)cc(C)c1O)CC/C=C(\C)CC[C@@H](C)C(C)(C)O	7.7 µM
Cc1cn([C@@H]2O[C@H](CO)[C@@H](O)[C@@H]2F)c(=O)[nH]c1=O	1 µg/mL
Nc1nc2c(ncn2CCC(CO)CO)c(=O)[nH]1	>926 µM
CC1(C)[C@@H](CO)CC[C@@]1(C)Cn1cnc2c(=O)[nH]cnc21	>50 µg/mL